Data as given in PubChem BioAssay AID1259414 (Drosophila RNAi Screening Center, 2018).

- Test: 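Host factors increasing or decreasing Wolbachia levels in cultured fly cells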 (primary screen)
- Cell system: Drosophila JW18 cells infected with Wolbachia
- Reagents: long dsRNA against Drosophila genes, 0.25 µg dsRNA per well of a 384-well plate
- Time to read-out: 5 days
- Challenge: cells persistently infected with Wolbachia before knock-down; no added drug
- Read-out: 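Imaged fluorescence in situ signal for Wolbachia 23S rRNA per DAPI-counted host cell, given as a robust z-score within each plate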
- Scale: Wolbachia per cell robust z: higher = more Wolbachia per host cell than the plate typical
- Rule for the call: 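Hit when robust z is 1.5 or more, or -1.5 or less, in at least two of three replicates; excludes dsRNAs with several or no targets, genes not expressed in JW18 and well A1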
In all, the deposit lists about 24,000 reagents; below is an unselected part of those that have a named target and a result. Over the whole deposit, about 1,210 (5%) were called active. 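Inactive calls also include excluded dsRNAs with several or no targets, genes unexpressed in JW18, and well A1, regardless of score.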 The numbers tell different reagents against one gene apart. A plus sign joins genes that one reagent is predicted to hit.

CG14853 #1: Wolbachia per cell robust z, rep 1 = -3.45; Wolbachia per cell robust z, rep 2 = 1.01; Wolbachia per cell robust z, rep 3 = -1.53; outcome = inactive
CG14853 #2: Wolbachia per cell robust z, rep 1 = 0.353; Wolbachia per cell robust z, rep 2 = 0.463; Wolbachia per cell robust z, rep 3 = 0.182; outcome = inactive
CG3036 #1: Wolbachia per cell robust z, rep 1 = 0.495; Wolbachia per cell robust z, rep 2 = -8.02; Wolbachia per cell robust z, rep 3 = 0.753; outcome = inactive
CG3036 #2: Wolbachia per cell robust z, rep 1 = 0.345; Wolbachia per cell robust z, rep 2 = 1.48; Wolbachia per cell robust z, rep 3 = 0.0195; outcome = inactive
CG3036 #3: Wolbachia per cell robust z, rep 1 = -8.12; Wolbachia per cell robust z, rep 2 = 1.39; Wolbachia per cell robust z, rep 3 = 0.413; outcome = inactive
CG1971 #1: Wolbachia per cell robust z, rep 1 = 0.367; Wolbachia per cell robust z, rep 2 = 0.374; Wolbachia per cell robust z, rep 3 = 0.655; outcome = inactive
CG1971 #2: Wolbachia per cell robust z, rep 1 = 0.665; Wolbachia per cell robust z, rep 2 = -0.188; Wolbachia per cell robust z, rep 3 = -0.475; outcome = inactive
Cog8: Wolbachia per cell robust z, rep 1 = 0.0369; Wolbachia per cell robust z, rep 2 = -0.0674; Wolbachia per cell robust z, rep 3 = -11.5; outcome = inactive
CG3213 #1: Wolbachia per cell robust z, rep 1 = 1.71; Wolbachia per cell robust z, rep 2 = 2.42; Wolbachia per cell robust z, rep 3 = 2.65; outcome = inactive
CG3213 #2: Wolbachia per cell robust z, rep 1 = 1.67; Wolbachia per cell robust z, rep 2 = 3.17; Wolbachia per cell robust z, rep 3 = 2.49; outcome = inactive
l(2)41Ab #1: Wolbachia per cell robust z, rep 1 = -0.129; Wolbachia per cell robust z, rep 2 = 0.589; Wolbachia per cell robust z, rep 3 = -0.108; outcome = inactive
l(2)41Ab #2: Wolbachia per cell robust z, rep 1 = 1.55; Wolbachia per cell robust z, rep 2 = -0.495; Wolbachia per cell robust z, rep 3 = 0.0465; outcome = inactive
Awh: Wolbachia per cell robust z, rep 1 = 0.602; Wolbachia per cell robust z, rep 2 = -0.0965; Wolbachia per cell robust z, rep 3 = 0.706; outcome = inactive

Records listed so far whose target name begins with L or l:
l(2)41Ab #1: Wolbachia per cell robust z, rep 1 = -0.129; Wolbachia per cell robust z, rep 2 = 0.589; Wolbachia per cell robust z, rep 3 = -0.108; outcome = inactive
l(2)41Ab #2: Wolbachia per cell robust z, rep 1 = 1.55; Wolbachia per cell robust z, rep 2 = -0.495; Wolbachia per cell robust z, rep 3 = 0.0465; outcome = inactive

Further results follow:
CG42637 + Gyc76C: Wolbachia per cell robust z, rep 1 = 1.07; Wolbachia per cell robust z, rep 2 = 0.237; Wolbachia per cell robust z, rep 3 = 0.322; outcome = inactive
Polr1E #1: Wolbachia per cell robust z, rep 1 = 0.14; Wolbachia per cell robust z, rep 2 = 0.242; Wolbachia per cell robust z, rep 3 = -0.0143; outcome = inactive
Polr1E #2: Wolbachia per cell robust z, rep 1 = 0.0739; Wolbachia per cell robust z, rep 2 = 0.203; Wolbachia per cell robust z, rep 3 = 0.226; outcome = inactive
Mco4 #1: Wolbachia per cell robust z, rep 1 = 0.327; Wolbachia per cell robust z, rep 2 = -2.38; Wolbachia per cell robust z, rep 3 = 0.772; outcome = inactive
Mco4 #2: Wolbachia per cell robust z, rep 1 = 0.366; Wolbachia per cell robust z, rep 2 = -1.07; Wolbachia per cell robust z, rep 3 = -0.524; outcome = inactive
Ccm3: Wolbachia per cell robust z, rep 1 = 0.428; Wolbachia per cell robust z, rep 2 = -7.93; Wolbachia per cell robust z, rep 3 = -6.3; outcome = active
CG4009: Wolbachia per cell robust z, rep 1 = 0.0594; Wolbachia per cell robust z, rep 2 = 0.892; Wolbachia per cell robust z, rep 3 = -7.92; outcome = inactive
CG14312: Wolbachia per cell robust z, rep 1 = -2; Wolbachia per cell robust z, rep 2 = -1.6; Wolbachia per cell robust z, rep 3 = 0.265; outcome = inactive
CG12541 #1: Wolbachia per cell robust z, rep 1 = -0.0704; Wolbachia per cell robust z, rep 2 = 0.387; Wolbachia per cell robust z, rep 3 = 0.309; outcome = inactive
CG12541 #2: Wolbachia per cell robust z, rep 1 = -1.8; Wolbachia per cell robust z, rep 2 = -0.0581; Wolbachia per cell robust z, rep 3 = -1.41; outcome = inactive
CG4957 #1: Wolbachia per cell robust z, rep 1 = 1.17; Wolbachia per cell robust z, rep 2 = 0.229; Wolbachia per cell robust z, rep 3 = 0.795; outcome = inactive
CG4957 #2: Wolbachia per cell robust z, rep 1 = -0.678; Wolbachia per cell robust z, rep 2 = -0.405; Wolbachia per cell robust z, rep 3 = -1.57; outcome = inactive
